Literature values as cited in patent US10073089B2 (priority 2011, dated 2018).

System: torpedo electrocyte membranes

Row | Substance | Sensitivity (amount in μg of toxin in the well) | Quantification range (nM)
1 | 13-desmethyl spirolide C [13-SPX C] | 13-SPX C: 85 μg | –
2 | gymnodimine A [GYM A] | – | GYM A: 12.5-500 nM
